The test addresses human ACE2(H34Y). The test is described as follows: SPR. To be noted: domain or fragment.

For “WT SARS-CoV-2 RBD (residues Thr333-Pro527) (from UniProt P0DTC2 333-527)”, the dissociation constant Kd was determined as 76 nM.
